Experimental data as given in US8299031B2, “Human semen enhancer of viral infection peptides (SEVI) and their use” (Viro Pharmaceuticals GmbH & Co. KG, priority 2006, dated 2012).

Assays:
[1] = system: X4 tropic NL4-3 Luc and R5 tropic 005pf103 Luc; assay: HIV-1 infection of macrophages (luciferase); settings: 3 days
[2] = system: X4 tropic HIV-1 NL4-3 Luc; assay: Infection of PBMC with X4 tropic HIV-1 (luciferase); settings: 10 μg/ml SEVI, 10 ng p24 antigen, PBMC
[3] = system: HIV-1 Env mediated cell-cell fusion; assay: HIV-1 Env mediated cell-cell fusion assay (293T / CEMX174 5.25 M7); settings: 10 μg/ml compared with 0 μg/ml, one day
[4] = system: X4-tropic HIV-1 NL4-3 and R5 tropic HIV-1 YU2; assay: Correlation of SEVI mediated increase with absolute viral infectivities in TZM-bl cells; type: cell-based; settings: 10 μg/ml SEVI, decreasing p24 concentrations

| Sequence | effect on HIV-1 infection of macrophages [1] | luciferase activities increased compared to control samples containing no peptide [2] | luciferase activities ([2]; 3 days) | fusion activity (luciferase activities) [3] | relation of x-fold increase of infection to absolute infectivities without peptide [4] |
| --- | --- | --- | --- | --- | --- |
| GIHKQKEKSRLQGGVLVNEILNHMKRATQIPSYKKLIMY (Synthetic fragment of the PAP protein) [PAP(248-286)] | enhanced HIV-1 infection of macrophages independently of the coreceptor used | 28 fold | 589,840 RLU/s | no increase in fusion activity could be observed | – |
| KQKEKSRLQGGVLVNEILNHMKRATQIPSYKKLIMY (Synthetic fragment of the PAP protein) [PAP(251-286)] | – | – | – | – | The higher the absolute infection rates were, the lower was the effect on SEVI mediated enhancement of infection |
